Publication PMC3567243 (Molecular Microbiology, 2012)

System: CC1=CC(=O)c2ccccc2C1=O
Assay: purified protein

Substance: (Mycobacterium tuberculosis H37Rv)
- Km: 47.14 ± 9.87 µM
- kcat/Km: 6670 M⁻¹ s⁻¹
